These results are taken from publication PMC3001019.

For this test, the target named is His-GyrA59 (59-kDa N-terminal fragment of E. coli GyrA, residues 2-523) (E. coli) (UniProt P0AES4). The test is described as follows: SPR.

As usually defined, the Kd is a measure of binding affinity in units of concentration. “Vibrio cholerae ParE2, native (His6 tag removed) (natural protein)” yielded a Kd of 0.02 nM.
